# Experimental data as given in paper PMC5859253.
# Amino acid sequences for entries named in this document (tags omitted). A change or cut given only in a name is not applied to a line headed by its entry.
# UniProt P0DM78: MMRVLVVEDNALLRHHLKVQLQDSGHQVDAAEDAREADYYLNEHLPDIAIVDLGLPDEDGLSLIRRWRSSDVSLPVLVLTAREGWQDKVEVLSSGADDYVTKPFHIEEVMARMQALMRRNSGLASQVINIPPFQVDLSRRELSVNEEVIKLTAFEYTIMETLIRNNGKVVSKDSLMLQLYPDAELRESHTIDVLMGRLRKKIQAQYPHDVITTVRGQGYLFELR
# Legend:
# PhoP-H6 (phosphorylated) = PhoP-H6 (phosphorylated) (UniProt P0DM78); assay: competition with a labelled probe; settings: phosphorylated PhoP 1 uM, unlabelled grhD1 5-100 fold excess; HilD/H-NS EMSA: 10 mM Tris-HCl pH 8, 50 mM KCl, 1 mM DTT, 0.5 mM EDTA, 5% glycerol, 10 ug/ml BSA, ~100 ng DNA, RT 20 min; recombinant protein; protein details: 6xHis; label: 5'-32P on one strand; probe letters rebuilt from the primers and the genome
# MBP-HilD = biological target: T1, MBP-HilD (UniProt E1WAC0); assay: EMSA; settings: shift at these concentrations; HilD/H-NS EMSA: 10 mM Tris-HCl pH 8, 50 mM KCl, 1 mM DTT, 0.5 mM EDTA, 5% glycerol, 10 ug/ml BSA, ~100 ng DNA, RT 20 min; recombinant protein; protein details: N-term MBP; probe letters rebuilt from the primers and the genome
# T1 sequence (looked up, limits assumed): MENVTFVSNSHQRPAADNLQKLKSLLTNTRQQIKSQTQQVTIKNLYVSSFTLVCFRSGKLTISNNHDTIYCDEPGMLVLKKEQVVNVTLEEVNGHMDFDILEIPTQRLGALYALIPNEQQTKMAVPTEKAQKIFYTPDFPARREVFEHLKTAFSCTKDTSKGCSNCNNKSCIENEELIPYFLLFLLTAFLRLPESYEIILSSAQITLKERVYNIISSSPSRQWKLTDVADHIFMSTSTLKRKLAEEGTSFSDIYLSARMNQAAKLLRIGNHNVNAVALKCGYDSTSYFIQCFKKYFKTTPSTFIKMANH
Sequence,binding result (PhoP-H6 (phosphorylated)),binding result (MBP-HilD)
ATCCAGAATCAGCTCCAGATAGTATTTCAAATAAACAGCCCGCACTATAGCGCATACTTTTTTCAGACACAGTTTACAGGGATACTCTCTTTATATCCACGCGCACGGTTGCCTTAATCATGTCTTCCGCGATAACACAGTTTGTCAACCTATTCTATATAACCAAGCTTAAACAGAACCTTACCAGCCAGTGATATCAGCTCAGGACTTTCAGGATAAAAACGCAGTAACGGCAAAAATACCGCCTCACCGATAAT (double strand) [grhD1 promoter (PhoP EMSA)],binds,
GACAAGCTTTTCTGAGCGTAGCAGGGAGCCGTCCATGTTGAGTATGAAATCATCAAAGACGAATTTTTTATTCGATACAGGAACAGGATTAAAATGTGGCATGATAATAGTGTATTCTCTTACAGGGTGAAAAGTTATAATAACTAATACAAGTCGTTAGGATAGAATCTACTGTTTCAGTAATTCTGCTGTTAGTACTAACGGTCAGGTTGAGCTTTTATTATGAGCTTAATGTCATATTCTACGGGCTCGGGTTTATATGTTTTTAACATTTGATTATTTAGCTTATGCCTGTGCTTTAAATAACTGACATGTTGGTAATAATATTGTTATAACTAACTGTGATTATCGAATGGACGCTGCCGTATATCCTGGTGCAGAGAGAGTCAGCGCCGGGCATCTAAATATTTACATATTTAACTTGGCCTCATTGCAATAGAGATTAGTTTTGTAGCTATCTTACTGCATTTTTTTGGGGTGTAAATGCTGCTTATTATATCTTCATGGTTAATGGTCTGATAATTACACCATCAGAACCATTTTTCTCGAAGATTTCCACTAAATGACCATTCGTTGAAAGTTTAAGAGTGTAATTTGTCTTAGGTTCCAAAATATAAATGAAAGACTGTTTTTAATGGTGCGCTTATTTTTATATTTTTTTGCAAAATAATGATATCGTCTTTTCTTTACTCCCTTCAGTTATAGCGTCAAAAAGGCAGGAGGGTTATGAGCAGTATCATCCTCAGGCTGGCTCCAGGCATTATATCGATATCAGGAGGAAGAGAGGAGGTATGCCTGGCAGAAAGCTAACAAGCGTGACTGTTTCGGTATAAACCGTTCAGGCAAATAGTTCTCAGAGGGATCCGAT (double strand) [hilA regulatory region],,binds

# Construct, isoform or probe ends are uncertain for at least one entry. For some assays here: At least one verdict was read from the data and is not stated in words by the source. For some assays here: Where a protein sequence is shown, tags need not be part of it.
